Laboratory results published in paper PMC6722932 (Toxins, 2019).

Molecular target: the molecule itself
Test: negative-stain electron microscopy

B1: lysenin^V88C/Y131C (natural protein)
chain: MSAKAAEGYEQIEVDVVAVWKEGYVYENRGSTSVDQKITITKGMKNVNSETRTVTATHSIGSTISTGDAFEIGSVEVSYSHSHEESQCSMTETEVYESKVIEHTITIPPTSKFTRWQLNADVGGADIEYMCLIDEVTPIGGTQSIPQVITSRAKIIVGRQIILGKTEIRIKHAERKEYMTVVSRKSWPAATLGHSKLFKFVLYEDWGGFRIKTLNTMYSGYEYAYSSDQGGIYFDQGTDNPKQRWAINKSLPLRHGDVVTFMNKYFTRSGLCYDDGPATNVYCLDKREDKWILEVVG
  binding result: binds
